Our source for the IC50 values is US20030069276A1, “Amino piperidine derivatives” (priority 2001, published 2003).

Sequences of proteins named here, by UniProt entry; tags and fusion partners are left off.
UniProt P51681, whole entry: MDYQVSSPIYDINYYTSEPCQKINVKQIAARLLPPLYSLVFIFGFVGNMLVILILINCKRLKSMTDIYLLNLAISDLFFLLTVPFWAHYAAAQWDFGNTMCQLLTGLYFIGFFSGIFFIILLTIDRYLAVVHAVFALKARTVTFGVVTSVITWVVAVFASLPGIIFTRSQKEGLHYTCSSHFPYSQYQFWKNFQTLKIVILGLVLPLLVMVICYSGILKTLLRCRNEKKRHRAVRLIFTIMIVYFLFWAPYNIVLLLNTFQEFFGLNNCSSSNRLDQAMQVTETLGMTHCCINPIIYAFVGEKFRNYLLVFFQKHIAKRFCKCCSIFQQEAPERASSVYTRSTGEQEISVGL

The assay addresses human CCR5 (Homo sapiens, UniProt P51681). As to the kind of experiment: gp120-sCD4-CCR5 binding assay (FACS). The conditions noted are these: read-out: FACS IC50; CHO-K1 cell line stably transfected with the human CCR5 gene; biotinylated gp120 (JRFL strain) and soluble recombinant CD4; 1% DMSO. The procedure:
gp120-sCD4-CCR5 Binding Assay:
The gp120-sCD4-CCR5 binding assay was carried out as previously described (Dragic, T., A. Trkola, et al. (2000). “A binding pocket for a small molecule inhibitor of HIV-1 entry within the transmembrane helices of CCR5.” Proc Natl Acad Sci USA 97: 5639-44.) with the following minor modifications: the cell line used for these experiments was a CHO-K1 cell line stably transfected with the human CCR5 gene; the gp120-CD4 complex comprised recombinant biotinylated gp120 (JRFL strain) and soluble recombinant CD4; and all compounds were tested in a final concentration of 1% DMSO.
All reagents and cell lines were obtained from Progenics Pharmaceuticals Inc, Tarrytown, N.Y., USA, and are commercially available or can be prepared according to the methods described and the information given in the papers above.

This is a selection: effects in other tests are not listed, and their absence says nothing.

In the case of `CNC(=O)N(c1ccccc1)C1CCN(Cc2nc(-c3ccc(C)cc3)[nH]c2C)CC1`, the half-maximal inhibitory concentration (IC50) (in general, the concentration needed to halve the response being measured) came out at 180 nM.
